Measured values from several laboratories, pooled; numbers as filed in NIAID ChemDB.

Shared fields: tests in culture; agent: Influenza A virus; read-out: EC50

Neighbouring rows are from separate reports. An empty or dashed field is not shown. Two numbers with a dash give a range or band. ECn: concentration that inhibits the pathogen or its effect by n%.

structure | strain | cells | read by | value
CCC(CC)O[C@@H]1C=C(C(=O)O)C[C@H](N)[C@H]1NC(C)=O | H1N1 A/Bayern/09/95 | MDCK | visual reading | 3 µM
CC(=O)OC1CC[C@@]23Oc4c(c(O)cc5c4C(=O)NC5=O)C[C@]2(C)[C@@H](C)CC[C@H]3C1(C)C | H1N1 A/WSN/33 | MDBK | - | 0.45 µM
NSc1ncnc2c1ncn2[C@@H]1O[C@H](CO)[C@@H](O)[C@@H]1O | - | - | cytopathic effect | >320 µM
CC(=O)O[C@H]1CC[C@@]23Oc4c(c(O)c(Br)c5c4CNC5=O)C[C@]2(C)[C@@H](C)CC[C@H]3C1(C)C | H1N1 A/WSN/33 | MDBK | - | 1.6 µM
CCC(CC)O[C@@H]1C=C(C(=O)O)C[C@H](N)[C@H]1NC(C)=O | Influenza A H3N2 isolate C26C | MDCK | plaque count | 5.1 µg/mL
Nc1nc(Cl)c(/C=N/O)c(NCC2(CO)CC(CCc3ccccc3)C2)n1 | H1N1 A/PR/8/34 | MDCK | plaque count | 0.26–0.77 µM
CCOc1nc2c(nc(N)n2[C@@H]2O[C@H](CO)[C@@H](O)[C@H]2F)c(=O)[nH]1 | Recombinant A/X31 | CEF | virus yield | 2.9 µM
CC(N)C12CC3CC(CC(C3)C1)C2 | H3N2 77 french isolates | VERO | ELISA | 0.033 µg/mL
CCC | Shanghai/11/87 (H3) | MDCK | - | >500 µM
Cc1cn([C@@H]2O[C@H](CO)[C@@H](O)[C@H]2F)c(=O)[nH]c1=O | Recombinant A/X31 | CEF | virus yield | >20 µM
CCC(CC)[C@H](NC(C)=O)[C@@H]1[C@H](O)[C@@H](C(=O)O)C[C@H]1N=C(N)N | H1N1 A/Bayern/07/95 | MDCK | - | 1 µM
Nc1nc(Cl)cc(NCC2(CCO)CCC2)n1 | H1N1 A/PR/8/34 | MDCK | plaque count | >120 µM
NS(=O)(=O)c1ncnc2c1ncn2[C@@H]1O[C@H](CO)[C@@H](O)[C@@H]1O | - | - | cytopathic effect | >320 µM
Nc1nc2c(nc(N)n2[C@@H]2O[C@H](CO)[C@@H](O)[C@H]2F)c(=O)[nH]1 | Recombinant A/X31 | CEF | virus yield | 0.2 µM
CC(C)=CCc1c(O)cc(O)c(C(=O)/C=C/c2ccccc2)c1O | Panama | - | - | 100 µg/mL
Nc1nc(Cl)cc(NCC2(O)CCC2)n1 | H1N1 A/PR/8/34 | MDCK | plaque count | >130 µM
CCOc1cc(O)c(C(=O)/C=C/c2ccc(OC)cc2)c(OC)c1 | NWS | HeLa | cytopathic effect | >3 µg/mL
CCC(CC)O[C@@H]1C=C(C(=O)O)C[C@H](N)[C@H]1NC(C)=O | H1N1 A/WSN/33 | MDCK | plaque count | 0.022 µM
C[C@H]1CC[C@H]2C(C)(C)[C@H](O)CC[C@]23Oc2c(c(O)cc4c2CNC4=O)C[C@]13C | H1N1 A/WSN/33 | MDBK | - | 0.012 µM
NS(=O)c1ncnc2c1ncn2[C@H]1C[C@H](O)[C@@H](CO)O1 | - | - | cytopathic effect | >320 µM
CC(C)C1CC(CO)(CNc2nc(N)nc(Cl)c2C=O)C1 | H1N1 A/PR/8/34 | MDCK | plaque count | 10–20 µM
Nc1nc2c(ncn2[C@@H]2O[C@H](CO)[C@@H](O)[C@H]2F)c(=O)[nH]1 | A/NWS/33/H1N1 | CEF | plaque count | 0.8 µM
N#CNc1nncs1 | A/Port Chalmers/1/73 | MDCK | plaque count | 0.8 µg/mL
Nc1nc(Cl)c(N)c(NCC2(CO)CC(CCCc3ccccc3)C2)n1 | H1N1 A/PR/8/34 | MDCK | plaque count | 0.016–0.027 µM
O=C(NC1CC1)c1cc2c(s1)-c1ccccc1N(C(=O)c1ccc(NC(=O)c3ccccc3-c3ccccc3)cc1)CC2 | Influenza A/Ishikawa/7/82 (H3N2) | HeLa | plaque count | >100 µM
Nc1nccc(NCC2(CO)CC(CCc3ccccc3)C2)n1 | H1N1 A/PR/8/34 | MDCK | plaque count | 4.5–16 µM
CC(=O)Oc1cc2c(c3c1C[C@]1(C)[C@@H](C)CC[C@H]4C(C)(C)[C@@H](OC(C)=O)CC[C@]41O3)CNC2=O | H1N1 A/WSN/33 | MDBK | - | 1.7 µM
Nc1ncc(/C=N/O)c(NCC2(CO)CCC2)n1 | H1N1 A/PR/8/34 | MDCK | plaque count | 22–56 µM
Nc1nc2c(ncn2COC(CO)CO)c(=O)[nH]1 | - | VERO | cytopathic effect | >400 µg/mL
CC(C)(CO)CNc1cc(Cl)nc(N)n1 | H1N1 A/PR/8/34 | MDCK | plaque count | 250 µM
CC(C)Oc1ccccc1NC(=O)Nc1ccc2cnccc2n1 | - | - | plaque count | >32 µg/mL